# Measurements from patent publication US6334944B1, “Process for producing an amino acid-N,N-diacetic acid and its salts” (Showa Denko K.K., priority 1998, dated 2002).
# Test system: activated sludge
# Test: Biodegradability test in compact aeration type activated sludger
# Settings: sample diluted to COD 500 ppm, activated sludge seed, 7 days
structure (smiles),measurement,value
"O=C([O-])CCC(C(=O)[O-])N(CC(=O)[O-])CC(=O)[O-].[Fe+3].[NH4+] (stereo not shown) [Example 21, ammonium ferric salt of glutamic acid-N,N-diacetic acid]",Decomposition Rate (%),79%
